The text below walks through data of PubChem BioAssay AID1259309 (ICCB-Longwood Screening Facility, Harvard Medical School, 2017).

The structures appear in SMILES notation. The list shows a part of the results, in another mix than the full data. Calls of active or inactive are those of the source. Rule as the data show it: active = growth inhibition above about 68%; inactive = the rest.

The nature of the test: growth inhibition of ugtP-null S. aureus, primary screen, RN4220 ugtP deletion, OD600 (AID 1259309).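 Also: plate controls were untreated wells for no effect and antibiotic for full effect.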 The following applies: 16 h, hits give high values.
Consider `CC(C)(C)C(=O)NC(Sc1ccccc1)C(Cl)(Cl)Cl` (configuration not stated), for which the growth inhibition was inactive: 1.34%.
The figure for `CN(C(=O)Cc1ccccc1)C1CC[C@]2(CCCO2)CC1N1CCCC1` (some centres not stated) is inactive: -2.03%; for `O=P1(Nc2nc3ccc(Cl)cc3s2)COc2ccccc2O1` (configuration not stated) it is inactive: -3.45%.
The figure for `CCOc1ccc(C2=NCC(CBr)S2)cc1` (configuration not stated) is inactive: 3.38%; for `CP(=O)(Nc1ccccc1)Oc1ccc(F)cc1` (configuration not stated) it is inactive: 0.452%; for `Cc1ccccc1OP(=O)(Nc1ccccn1)Oc1ccccc1C` it is inactive: -4.32%.
Consider `CC(NC(=O)COC(=O)C(O)(c1ccccc1)c1ccccc1)c1ccccc1` (configuration not stated), for which the growth inhibition was inactive: -0.418%.
Consider `CN(C)C(=O)Oc1noc2ccccc12`, for which the growth inhibition was inactive: 6.04%.
The figure for `O=[N+]([O-])c1cc([N+](=O)[O-])c(OC2CCCCC2O)c([N+](=O)[O-])c1` (configuration not stated) is inactive: 5.72%; for `Cc1c([N+](=O)[O-])cc([N+](=O)[O-])c(Br)c1[N+](=O)[O-]` it is inactive: 5.9%.
As to `COC(=O)c1cc2c(s1)N=C(c1ccccc1)N(C)P2(=O)N1CCOCC1` (configuration not stated), the growth inhibition is inactive: -0.481%.
The figure for `CC(=O)NC(SC(=S)N(CC(C)C)CC(C)C)C(Cl)(Cl)Cl` (configuration not stated) is inactive: 34.9%; for `Cc1ccc(OP(=O)(Nc2ccccn2)Oc2ccc(C)cc2)cc1` it is inactive: -10.7%; for `O=C(OC1CN2CCC1CC2)c1ccccc1` (configuration not stated) it is inactive: 2.7%.
Regarding `CCN(CC)CCCOC(=O)C(O)(c1ccccc1)C1CCCCC1` (configuration not stated), the growth inhibition is inactive: 0.893%.
The figure for `CC1OP(=O)(Oc2ccccc2)CC2OC12` (configuration not stated) is inactive: -0.35%; for `CCC(=O)N1C2C3N(C(=O)CC)C1C1N(C(=O)CC)C(C(N1C(=O)CC)N3C(=O)CC)N2C(=O)CC` it is inactive: -4.44%.
The figure for `O=P1(N(CCCl)CCCl)OCCC2CCCCN21` (configuration not stated) is inactive: -3.08%; for `CCOC(=O)c1ccc(NP(C)(=O)Oc2ccc(F)cc2)cc1` (configuration not stated) it is inactive: -0.262%; for `COc1ccc(OP(C)(=O)Nc2ccc(SC(F)(F)F)cc2)cc1` (configuration not stated) it is inactive: -4.11%.
The figure for `O=C(NC1CCS(=O)(=O)C1)NP(=S)(Oc1ccccc1)Oc1ccccc1` (configuration not stated) is inactive: 4.9%; for `c1ccc(-c2nn[nH]n2)c(-c2nn[nH]n2)c1` it is inactive: 6.94%.
In the case of `Cc1ccc(NP(=O)(Oc2cccc(C)c2)Oc2cccc(C)c2)nc1`, the growth inhibition was inactive: 3.28%.
The figure for `CN(C)C(=O)c1cc([N+](=O)[O-])cc2c1-c1c(cc([N+](=O)[O-])cc1[N+](=O)[O-])C2=O` is inactive: 20.1%; for `O=[N+]([O-])c1ccc2c(c1)nnn2O` it is inactive: -0.455%.
The figure for `CC1=NCCc2c1[nH]c1ccccc21.O=[N+]([O-])c1cc([N+](=O)[O-])c(O)c([N+](=O)[O-])c1` is inactive: 6.29%.
Take `Cc1ccc(NC(=NP(=O)(N2CCOCC2)N2CCOCC2)N2CCOCC2)cc1`: the growth inhibition was inactive: -0.265%.
The figure for `N#CCCN(C(=O)COC(=O)C(O)(c1ccccc1)c1ccccc1)c1ccc(F)cc1` is inactive: 3.79%; for `CCOP1(=S)c2c(C)nn(CCC#N)c2N=C(c2ccc(F)cc2)N1C` (configuration not stated) it is inactive: 4.34%; for `NC(=O)Nc1ccc([As](=O)(O)O)cc1` it is inactive: -2.52%.
The figure for `Nc1ccccc1[As](=O)(O)c1ccccc1` is inactive: 5.62%; for `O=C(O)COc1ccc([As](=O)(O)O)cc1[N+](=O)[O-]` it is inactive: 14.4%.
The figure for `CCOP1(=S)c2c(C)nn(CCC#N)c2N=C(c2ccccc2F)N1C` (configuration not stated) is inactive: -7.82%; for `O=C(O)c1cccc(Nc2c([N+](=O)[O-])cc([N+](=O)[O-])cc2[N+](=O)[O-])c1` it is inactive: 0.611%.
With `O=P(Nc1nccs1)(c1ccccc1)c1nc2ccccc2s1` (configuration not stated), the growth inhibition is inactive: -0.658%.
The figure for `O=P(Nc1nccs1)(Oc1ccccc1)Oc1ccccc1` is inactive: 4.75%.
For the compound `CCOP(=O)(Nc1cccc2ccccc12)OCC`, the growth inhibition was inactive: 4.48%.
The figure for `CCCOP(=S)(Nc1nc(N)cc(=O)[nH]1)OCCC` is inactive: -2.62%; for `Cc1ccc(C)c(NP(C)(=O)Oc2ccccc2)c1` (configuration not stated) it is inactive: 7.95%; for `CP(=O)(Nc1cccc(Br)c1)Oc1ccccc1` (configuration not stated) it is inactive: 4.94%.
In the case of `Cc1cc(C)cc(OP(C)(=O)Nc2ccccn2)c1` (configuration not stated), the growth inhibition is inactive: -2.82%.
The figure for `Cc1ccc(NCCc2c([N+](=O)[O-])cc([N+](=O)[O-])cc2[N+](=O)[O-])cc1` is inactive: 22.9%; for `CC1C=CCP(=O)(Oc2ccccc2)O1` (configuration not stated) it is inactive: 1.13%.
With `CCOC(=O)c1ccc(NP(C)(=O)Oc2cc(C)cc(C)c2)cc1` (configuration not stated), the growth inhibition is inactive: -0.246%.
With `O=[As](O)(c1cccc(O)c1)c1cccc(O)c1`, the growth inhibition was inactive: -3.2%.
Turning to `Cc1cccc(OCC(=O)OC2CN3CCC2CC3)c1` (configuration not stated), the growth inhibition is inactive: 1.45%.
Take `Cc1cc(C)cc(OP(C)(=O)Nc2ccc(C)cc2C)c1` (configuration not stated): the growth inhibition was inactive: -4.67%.
The figure for `COc1cc(C(=O)NCC2(N3CCOCC3)CCCCC2)cc(Cl)c1OC(C)C` is inactive: -3.05%; for `O=[As](O)(O)c1cccnc1` it is inactive: -1.63%.
The figure for `COc1ccccc1OP(C)(=O)Nc1cccc(Br)c1` (configuration not stated) is inactive: 8.71%; for `CS(=O)(=O)c1ccc(Cl)c(NC(=O)COC(=O)C(O)(c2ccccc2)c2ccccc2)c1` it is inactive: 0.766%; for `O=C(OC1CN2CCC1CC2)c1ccc(Cl)cc1` (configuration not stated) it is inactive: 3.8%.
On to `O=[As](O)(c1ccccc1Br)c1ccccc1Br`, for which the growth inhibition was inactive: 2.22%.
The figure for `CC1(CBr)Cn2c(nc3ccccc3c2=O)S1` (configuration not stated) is inactive: 6.38%.
The figure for `Cc1nc2ccc3ccccc3c2s1.O=[N+]([O-])c1cc([N+](=O)[O-])c(O)c([N+](=O)[O-])c1` is inactive: 5.11%; for `COc1ccccc1CNC(=O)COC(=O)C(O)(c1ccccc1)c1ccccc1` it is inactive: 4.29%; for `O=[N+]([O-])c1cc([N+](=O)[O-])c(-c2cnn(-c3ccccc3)c2)c([N+](=O)[O-])c1` it is inactive: 33.8%.
The figure for `Clc1n[nH]nc1-c1nn[nH][15n]1` is inactive: -2.52%; for `CC(C)(C)C(=O)NC(Sc1ncccn1)C(Cl)(Cl)Cl` (configuration not stated) it is inactive: 1.22%.
As for `CCOP(=O)(Nc1ccc(C)cn1)OCC`, the growth inhibition was inactive: 2.31%.
The figure for `O=P1(Nc2ccccn2)COc2ccccc2OC1` is inactive: 2.62%.
The figure for `O=[N+]([O-])c1cc([N+](=O)[O-])c(-n2nnc3ccccc32)c([N+](=O)[O-])c1` is inactive: -5.27%.
